# Values from PubChem BioAssay AID504761 (Drosophila RNAi Screening Center, 2011)
# Purpose: 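Genome-wide fly cell screen for genes dengue virus requires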 (primary screen)
# System: D.Mel-2 cells from Drosophila
# Knock-down reagent: long dsRNA against Drosophila genes
# Treatment: infection with dengue virus type 2; dose and infection time not stated
# Detection: 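Cells stained for dengue envelope protein and imaged; percent of infected cells per well on duplicate plates, ranked by infection, with stained nuclei counted for cell number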
# Direction: infection score: higher = more virus-infected cells; cell count: higher = more cells in the well
# Hit rule: 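Very low infection ranking in both replicate wells (chance probability at most 0.065), then a retest showing infection dropped 1.5-fold or more at p below 0.05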
# Calls: active = confirmed: knock-down lowers infection; inactive = not picked or not confirmed
# In all, the deposit lists about 22,000 reagents; shown is an unselected part of those with a known target gene and a result. In the full data, 116 (0.52%) were called active. 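Calls depend on retest data that are not deposited; infection was ranked per plate without normalising between plates; the unit of the infection score is not given.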 Raw values vary from plate to plate and are shown uncorrected. Unmarked entries are inactive. A plus sign joins genes that one reagent is predicted to hit. Further read-outs or replicates are left out here. The record does not give: the amount of reagent, the time to read-out.
predicted target,amplicon,"infection score, replicate 1","infection score, replicate 2","cell count, replicate 1"
Apt1 (Acyl-protein thioesterase 1),DRSC10348,2.54,1.77,6216
Rop (Ras opposite),DRSC08693,5.3,4.9,5694
Rop (Ras opposite),DRSC26024,4.63,4.95,5766
Grp170 (Grp170 co-chaperone),DRSC18524,3.14,2.39,6266
Grp170 (Grp170 co-chaperone),DRSC24799,2.66,2.94,6015
CR30068 (retired record),DRSC05477,2.25,4.4,6174
CR30068 (retired record),DRSC27393,9.57,2.21,6413
CG8031,DRSC16364,4.65,11.5,2020
CG33271,DRSC10583,2.23,7.01,5392
Cyp6a18 (Cytochrome P450 6a18),DRSC16632,0.85,2.38,6668
rept (reptin),DRSC11388,28.8,15.6,3078
rept (reptin),DRSC27183,20.8,33.4,2708
CG10764,DRSC06000,7.29,16,6490
Ir84a (Ionotropic receptor 84a),DRSC12510,5.18,8.47,6724
Ir84a (Ionotropic receptor 84a),DRSC27487,4,7.59,6530
fwd (four wheel drive),DRSC08580,11.8,3.86,6100
fwd (four wheel drive),DRSC26680,1.89,0.74,5875
Mettl4 + CG14907,DRSC26716,2.47,1.51,6357
dysf (dysfusion),DRSC14529,3,6.17,6039
dysf (dysfusion),DRSC14895,2.45,1.9,6365
dysf (dysfusion),DRSC14896,1.06,1.83,6953
CG4101,DRSC10400,3.78,6.1,6211
mRpL55 (mitochondrial ribosomal protein L55),DRSC14764,6.63,4.53,5578
Pp2C1 (Protein phosphatase 2C),DRSC23287,3.02,7.94,6467
Pp2C1 (Protein phosphatase 2C),DRSC28091,21,12.7,5307
Cpsf73 (Cleavage and polyadenylation specificity factor 73),DRSC16291,3.57,3.75,3728
Cpsf73 (Cleavage and polyadenylation specificity factor 73),DRSC28954,7.89,,2306
CG3961,DRSC10390,14,15.9,6176
CG3961,DRSC10391,8.69,2.79,6824
CG33299,DRSC01085,5.21,0.42,6045
CG2816,DRSC00539,4.82,1.91,6429
CG2816,DRSC24375,2.37,1.58,5991
Sec22 (Secretory 22),DRSC18538,5.68,15.2,6425
Sec22 (Secretory 22),DRSC29297,7.08,,5860
COX8 (Cytochrome c oxidase subunit 8),DRSC11814,2.56,14.3,5264
COX8 (Cytochrome c oxidase subunit 8),DRSC28975,6.4,17,5644
CG9084,DRSC07335,5.79,9.45,6525
jigr1 (jing interacting gene regulatory 1),DRSC15233,4.95,0.21,1496
jigr1 (jing interacting gene regulatory 1),DRSC22617,6.89,8.88,6808

Taken from above:
CG33299 [DRSC01085], infection score, replicate 2 → 0.42
Grp170 (Grp170 co-chaperone) [DRSC18524], cell count, replicate 1: 6266
